# Experimental data from ChEMBL document CHEMBL3627621, “Interactions of a potent cyclic peptide inhibitor with the light chain of botulinum neurotoxin A: Insights from X-ray crystallography” (2015).
# Chains of the proteins cited; added tags and fusions are not shown.
# UniProt P0DPI0, whole entry, looked up: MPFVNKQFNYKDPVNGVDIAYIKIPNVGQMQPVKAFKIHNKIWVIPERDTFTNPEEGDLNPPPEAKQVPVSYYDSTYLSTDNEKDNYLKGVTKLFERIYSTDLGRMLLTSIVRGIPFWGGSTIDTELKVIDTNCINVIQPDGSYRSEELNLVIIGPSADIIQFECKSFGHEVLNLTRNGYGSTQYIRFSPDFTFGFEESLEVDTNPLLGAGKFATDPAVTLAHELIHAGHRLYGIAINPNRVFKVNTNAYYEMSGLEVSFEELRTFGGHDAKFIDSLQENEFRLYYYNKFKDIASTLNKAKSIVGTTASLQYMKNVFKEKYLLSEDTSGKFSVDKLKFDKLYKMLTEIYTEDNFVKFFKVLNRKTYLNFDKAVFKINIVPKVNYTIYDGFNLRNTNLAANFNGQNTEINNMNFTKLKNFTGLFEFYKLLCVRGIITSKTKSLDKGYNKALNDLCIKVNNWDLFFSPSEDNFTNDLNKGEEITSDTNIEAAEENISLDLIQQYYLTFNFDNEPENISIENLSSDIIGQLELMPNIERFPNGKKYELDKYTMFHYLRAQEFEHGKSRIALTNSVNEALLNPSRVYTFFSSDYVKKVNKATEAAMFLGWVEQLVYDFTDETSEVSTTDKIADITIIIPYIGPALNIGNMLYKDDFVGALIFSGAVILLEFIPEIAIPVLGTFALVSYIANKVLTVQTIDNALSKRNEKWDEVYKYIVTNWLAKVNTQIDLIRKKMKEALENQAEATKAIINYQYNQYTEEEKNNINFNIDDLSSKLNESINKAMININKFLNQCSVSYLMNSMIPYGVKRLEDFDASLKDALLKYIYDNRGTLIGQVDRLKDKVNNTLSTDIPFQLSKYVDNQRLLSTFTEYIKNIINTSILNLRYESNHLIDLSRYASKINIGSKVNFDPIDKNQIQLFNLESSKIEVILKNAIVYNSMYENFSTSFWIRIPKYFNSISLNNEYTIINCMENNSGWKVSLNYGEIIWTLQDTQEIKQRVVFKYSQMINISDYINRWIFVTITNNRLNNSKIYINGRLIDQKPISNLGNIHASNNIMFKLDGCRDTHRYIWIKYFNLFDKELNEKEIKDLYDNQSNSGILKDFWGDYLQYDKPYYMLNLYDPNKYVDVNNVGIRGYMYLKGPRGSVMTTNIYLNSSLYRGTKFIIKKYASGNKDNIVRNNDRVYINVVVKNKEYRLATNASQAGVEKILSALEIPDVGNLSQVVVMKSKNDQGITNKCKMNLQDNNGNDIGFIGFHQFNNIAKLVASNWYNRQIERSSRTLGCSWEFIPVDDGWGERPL
# Active and inactive are the calls of the source. The calls are words filed in the database; no cut-off is given here.
# Target: Botulinum neurotoxin type A (Clostridium botulinum) (UniProt P0DPI0)
# Assay: Inhibition of Clostridium botulinum BoNT/A light chain-mediated SNAP-25 cleavage pretreated for 2 hrs by FRET assay using CFP-SNAP-25 (141-206)-YFP as substrate
smiles,measurement,value
CC(C)C[C@H](NC(=O)[C@@H]1CSSC[C@H](N)C(=O)NCC[C@H](N)C(=O)N[C@@H](CCCNC(=N)N)C(=O)N[C@@H](Cc2cc3ccccc3[nH]2)C(=O)N[C@@H]([C@H](C)O)C(=O)N[C@@H](CCCCN)C(=O)N1)C(N)=O,inhibition,Active
